Values from PubChem BioAssay AID504761 (Drosophila RNAi Screening Center, 2011)

Purpose: 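Insect host genes that dengue virus relies on to spread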 (primary screen)
Cell system: D.Mel-2 cells from Drosophila
Knock-down reagent: long dsRNA against Drosophila genes
Treatment: infection with dengue virus type 2; dose and infection time not stated
Measurement: 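Per well on two replicate plates, imaging gave the percent of cells positive for viral envelope protein, ranked by infection, and a nuclear count of cells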
Direction: infection score: higher = more virus-infected cells; cell count: higher = more cells in the well
Hit rule: 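Low infection ranks in the two replicates (chance level up to 0.065) followed by a retest with a 1.5-fold or larger significant decrease, p below 0.05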
Calls: active = confirmed: knock-down lowers infection; inactive = not picked or not confirmed
The screen tested about 22,000 reagents; this is an unselected part of those that have a named target and a result. Over the whole deposit, 116 (0.52%) got an active call. 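Calls depend on retest data that are not deposited; infection was ranked per plate without normalising between plates; the unit of the infection score is not given.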 The raw values are shown without normalisation. A number with no mark means an inactive call. The record does not give: the amount of reagent, the time to read-out.

What did the screen give for Isha (GeneID 37411) [DRSC04456]?
infection score, replicate 1: 6.24; infection score, replicate 2: 30.5; cell count, replicate 1: 4741; cell count, replicate 2: 3789

For CG1578 (GeneID 32135) [DRSC19729], what was measured?
infection score, replicate 1: 2.7; infection score, replicate 2: 2.43; cell count, replicate 1: 6138; cell count, replicate 2: 6333

For CG1578 (GeneID 32135) [DRSC26369], what does the deposit list?
infection score, replicate 1: 4.24; infection score, replicate 2: 16; cell count, replicate 1: 6220; cell count, replicate 2: 6638

Which result is listed for CG18853 (GeneID 246511) [DRSC06795]?
infection score, replicate 1: 19.2; infection score, replicate 2: 16.5; cell count, replicate 1: 5960; cell count, replicate 2: 4729

With CG10508 (GeneID 40342) [DRSC11612], what was measured?
infection score, replicate 1: 16.9; infection score, replicate 2: 5.84; cell count, replicate 1: 5466; cell count, replicate 2: 6710

What did the screen give for CG10508 (GeneID 40342) [DRSC11613]?
infection score, replicate 1: 5.71; infection score, replicate 2: 1.62; cell count, replicate 1: 6565; cell count, replicate 2: 6587

For Or24a (GeneID 33623) [DRSC00768], what was measured?
infection score, replicate 1: 1.06; infection score, replicate 2: 2.24; cell count, replicate 1: 6667; cell count, replicate 2: 6776

How did the screen score Oxp (GeneID 37002) [DRSC06712]?
infection score, replicate 1: 20.4; infection score, replicate 2: 15.6; cell count, replicate 1: 5417; cell count, replicate 2: 7098

What is on record for ball (GeneID 43228) [DRSC14145]?
infection score, replicate 1: 19.3; infection score, replicate 2: 11.5; cell count, replicate 1: 4679; cell count, replicate 2: 5319

For ball (GeneID 43228) [DRSC26607], what does the deposit list?
infection score, replicate 1: 4.7; infection score, replicate 2: 5.42; cell count, replicate 1: 4600; cell count, replicate 2: 6416

For Syx7 (GeneID 36173) [DRSC11763], how do the results read?
infection score, replicate 1: 2.3; infection score, replicate 2: 10.2; cell count, replicate 1: 6472; cell count, replicate 2: 6137

What is on record for CG15369 (GeneID 31862) [DRSC18041]?
infection score, replicate 1: 2.21; infection score, replicate 2: 5.19; cell count, replicate 1: 6141; cell count, replicate 2: 6567

An excerpt taken from the entries so far, for reference:
ball (GeneID 43228) [DRSC26607] — infection score, replicate 1: 4.7; infection score, replicate 2: 5.42; cell count, replicate 1: 4600; cell count, replicate 2: 6416
Syx7 (GeneID 36173) [DRSC11763] — infection score, replicate 1: 2.3; infection score, replicate 2: 10.2; cell count, replicate 1: 6472; cell count, replicate 2: 6137

The listing continues:
For Ir10a (GeneID 32067) [DRSC18891], how do the results read?
infection score, replicate 1: 0.63; infection score, replicate 2: 3.11; cell count, replicate 1: 6355; cell count, replicate 2: 5989

For Ir10a (GeneID 32067) [DRSC19478], what was measured?
infection score, replicate 2: 10.9; cell count, replicate 1: 516; cell count, replicate 2: 4047

With Ir10a (GeneID 32067) [DRSC19479], how do the results read?
infection score, replicate 1: 7.01; infection score, replicate 2: 8.23; cell count, replicate 1: 6109; cell count, replicate 2: 6523

For CG15084 (GeneID 37178) [DRSC06515], what does the deposit list?
infection score, replicate 1: 0.68; infection score, replicate 2: 1.07; cell count, replicate 1: 6472; cell count, replicate 2: 7190

For CG15084 (GeneID 37178) [DRSC21403], what does the deposit list?
infection score, replicate 1: 2.05; infection score, replicate 2: 10.1; cell count, replicate 1: 5611; cell count, replicate 2: 6221

How did the screen score CG15084 (GeneID 37178) [DRSC27128]?
infection score, replicate 1: 3.88; infection score, replicate 2: 2.45; cell count, replicate 1: 6425; cell count, replicate 2: 6477

With atms (GeneID 40593) [DRSC12310], what does the deposit list?
infection score, replicate 1: 12.2; infection score, replicate 2: 15.8; cell count, replicate 1: 3651; cell count, replicate 2: 3657

How did the screen score atms (GeneID 40593) [DRSC27502]?
infection score, replicate 1: 13.9; infection score, replicate 2: 9.4; cell count, replicate 1: 4561; cell count, replicate 2: 4626

With CG32944 (GeneID 40560) [DRSC12138], what does the deposit list?
infection score, replicate 1: 2.65; infection score, replicate 2: 1.15; cell count, replicate 1: 6687; cell count, replicate 2: 6343

With CG32944 (GeneID 40560) [DRSC12341], what does the deposit list?
infection score, replicate 1: 2.28; infection score, replicate 2: 1.06; cell count, replicate 1: 6887; cell count, replicate 2: 6591
